A mixed list of measured activities; the numbers were collected in NIAID ChemDB.

All rows: whole-cell or culture tests; organism: Mycobacterium avium intracellulare

A number after MIC or MFC names an inhibition level or a share of isolates. An empty or dashed field is not shown. Rows are shuffled and stem from different studies.

{"compound": "COc1c(N2CCNC(C)C2)c(F)cc2c(=O)c(C(=O)O)cn(C3CC3)c12", "strain or isolate": "20 strains", "measure": "MIC90", "result": "12.5 µg/mL"}
{"compound": "CO[C@H]1/C=C/O[C@@]2(C)Oc3c(C)c(O)c4c(O)c(c5c(c4c3C2=O)NC2(CCN(CC(C)C)CC2)N=5)=NC(=O)/C(C)=C\\C=C\\[C@H](CO)[C@H](O)[C@@H](C)[C@@H](O)[C@@H](C)[C@H](OC(C)=O)[C@@H]1C", "strain or isolate": "CDC1", "measure": "MIC", "result": "0.31 µg/mL"}
{"compound": "CC1COc2c(N3CCN(C)CC3)c(F)cc3c(=O)c(C(=O)O)cn1c23", "measure": "MIC", "result": "2.5 µg/mL"}
{"compound": "CC[C@@H](CO)NCCN[C@@H](CC)CO", "measure": "MBC", "result": "16 µg/mL"}
{"compound": "CCn1cc(C(=O)O)c(=O)c2cnc(N3CCCC3)nc21", "measure": "MIC", "result": ">250 µg/mL"}
{"compound": "CO[C@H]1/C=C/O[C@@]2(C)Oc3c(C)c(O)c4c(O)c(c(/C=N/N5CCN(C)CC5)c(O)c4c3C2=O)NC(=O)/C(C)=C\\C=C\\[C@H](C)[C@H](O)[C@@H](C)[C@@H](O)[C@@H](C)[C@H](OC(C)=O)[C@@H]1C", "strain or isolate": "CIPT 140310023", "measure": "MIC", "result": "0.5 µg/mL"}
{"compound": "CO[C@H]1/C=C/O[C@@]2(C)Oc3c(C)c(O)c4c(O)c(c(/C=N/N5CCN(C)CC5)c(O)c4c3C2=O)NC(=O)/C(C)=C\\C=C\\[C@H](C)[C@H](O)[C@@H](C)[C@@H](O)[C@@H](C)[C@H](OC(C)=O)[C@@H]1C", "strain or isolate": "17 isolates", "measure": "MIC90", "result": "0.5 µg/mL"}
{"compound": "NC[C@H]1O[C@H](O[C@H]2[C@H](O)[C@@H](O[C@H]3O[C@H](CO)[C@@H](O)[C@H](N)[C@H]3O)[C@H](N)C[C@@H]2N)[C@H](O)[C@@H](O)[C@@H]1O", "strain or isolate": "N-475 (HIV-)", "measure": "MIC", "result": "0.25 µg/mL"}
{"compound": "C[C@H]1COc2c(N3CCN(C)CC3)c(F)cc3c(=O)c(C(=O)O)cn1c23", "strain or isolate": "16 isolates", "measure": "MIC50", "result": "50 µg/mL"}
{"compound": "CC1COc2c(N3CCN(C)CC3)c(F)cc3c(=O)c(C(=O)O)cn1c23", "strain or isolate": "20 isolates", "measure": "MIC90", "result": "8 µg/mL"}
{"compound": "CO[C@H]1/C=C/O[C@@]2(C)Oc3c(C)c(O)c4c(=O)c(c5oc6cc(N7CCN(CC(C)C)CC7)cc(=O)c6nc5c4c3=C2O)NC(=O)/C(C)=C\\C=C\\[C@H](C)[C@H](O)[C@@H](C)[C@@H](O)[C@@H](C)[C@H](OC(C)=O)[C@@H]1C", "strain or isolate": "N-260", "measure": "MBC", "result": "1 µg/mL"}
{"compound": "CCn1cc(C(=O)O)c(=O)c2cc(F)c(N3CCNC(C)C3)c(F)c21", "measure": "MIC", "result": "4.5 µg/mL"}
{"compound": "CNC1CCCN(c2c(F)cc3c(=O)c(C(=O)O)cn(C4CC4)c3c2OC)C1", "strain or isolate": "16 isolates", "measure": "MIC90", "result": "50 µg/mL"}
{"compound": "CCCN1CCN(c2cc(=O)c3nc4c(oc3c2)c2c(=O)c3c(O)c(C)c5c(c34)=C(O)[C@@](C)(O/C=C/[C@H](OC)[C@@H](C)[C@@H](OC(C)=O)[C@H](C)[C@H](O)[C@H](C)[C@@H](O)[C@@H](C)/C=C/C=C(/C)C(=O)N2)O5)CC1", "strain or isolate": "31 strains", "measure": "MIC50", "result": "0.05 µg/mL"}
{"compound": "CCn1cc(C(=O)O)c(=O)c2cc(F)c(N3CCNCC3)cc21", "strain or isolate": "16 isolates", "measure": "MIC90", "result": ">100 µg/mL"}
{"compound": "CCn1cc(C(=O)O)c(=O)c2cc3c(cc21)OCO3", "measure": "MIC", "result": "449.3 µg/mL"}
{"compound": "COc1c(N2CCNC(C)C2)c(F)cc2c(=O)c(C(=O)O)cn(C3CC3)c12", "strain or isolate": "16 isolates", "measure": "MIC50", "result": "12.5 µg/mL"}
{"compound": "CCn1cc(C(=O)O)c(=O)c2ccc(C)nc21", "measure": "MIC", "result": "462.5 µg/mL"}
{"compound": "CC[C@H]1OC(=O)[C@H](C)[C@@H](O[C@H]2C[C@@](C)(OC)[C@@H](O)[C@H](C)O2)[C@H](C)[C@@H](O[C@@H]2O[C@H](C)C[C@H](N(C)C)[C@H]2O)[C@](C)(OC)C[C@@H](C)C(=O)[C@H](C)[C@@H](O)[C@]1(C)O", "measure": "MBC", "result": "8 µg/mL"}
{"compound": "CO[C@H]1/C=C/O[C@@]2(C)Oc3c(C)c(O)c4c(=O)c(c5oc6cc(N7CCN(CC(C)C)CC7)cc(=O)c6nc5c4c3=C2O)NC(=O)/C(C)=C\\C=C\\[C@H](C)[C@H](O)[C@@H](C)[C@@H](O)[C@@H](C)[C@H](OC(C)=O)[C@@H]1C", "strain or isolate": "31 strains", "measure": "MIC50", "result": "0.05 µg/mL"}
{"compound": "NNC(=O)c1ccncc1", "measure": "MBC", "result": ">32 µg/mL"}
{"compound": "CN1CCN(c2c(F)cc3c(=O)c(C(=O)O)cn4c3c2SCC4)CC1", "measure": "MIC", "result": "31 µg/mL"}
{"compound": "CC1COc2c(N3CCN(C)CC3)c(F)cc3c(=O)c(C(=O)O)cn1c23", "strain or isolate": "95 isolates", "measure": "MIC50", "result": "2 µg/mL"}
{"compound": "CO[C@H]1/C=C/O[C@@]2(C)Oc3c(C)c(O)c4c(O)c(c(/C=N/N5CCN(C)CC5)c(O)c4c3C2=O)NC(=O)/C(C)=C\\C=C\\[C@H](C)[C@H](O)[C@@H](C)[C@@H](O)[C@@H](C)[C@H](OC(C)=O)[C@@H]1C", "strain or isolate": "20 isolates", "measure": "MIC90", "result": "2 µg/mL"}
{"compound": "CC1COc2c(C3(N)CC3)c(F)cc3c(=O)c(C(=O)O)cn1c23", "strain or isolate": "16 isolates", "measure": "MIC50", "result": ">100 µg/mL"}
{"compound": "NC[C@H]1O[C@H](O[C@H]2[C@H](O)[C@@H](O[C@H]3O[C@H](CO)[C@@H](O)[C@H](N)[C@H]3O)[C@H](N)C[C@@H]2N)[C@H](O)[C@@H](O)[C@@H]1O", "measure": "MBC", "result": ">32 µg/mL"}
{"compound": "CCn1cc(C(=O)O)c(=O)c2cc(F)c(N3CCN(C)CC3)cc21", "measure": "MIC", "result": "13.6 µg/mL"}
{"compound": "CCCCCCCCCC(=O)O[C@@H]1[C@H](OC)[C@@H]([C@@H](O[C@H]2OC(C(=O)N[C@H]3CCC[C@@H](C)NC3=O)=C[C@H](O)[C@@H]2O)C(N)=O)O[C@H]1n1ccc(=O)[nH]c1=O", "strain or isolate": "17 isolates", "measure": "MIC50", "result": "0.06 µg/mL"}
{"compound": "Cc1c(F)c(N2CCNC(C)C2)cc2c1c(=O)c(C(=O)O)cn2C1CC1", "measure": "MIC", "result": "5.4 µg/mL"}
{"compound": "Cc1c(N2C[C@@H](N)C3(CC3)C2)c(F)c(N)c2c(=O)c(C(=O)O)cn(C3CC3)c12", "strain or isolate": "20 strains", "measure": "MIC90", "result": "12.5 µg/mL"}

The first 3 rows once more:

compound | strain or isolate | measure | result
COc1c(N2CCNC(C)C2)c(F)cc2c(=O)c(C(=O)O)cn(C3CC3)c12 | 20 strains | MIC90 | 12.5 µg/mL
CO[C@H]1/C=C/O[C@@]2(C)Oc3c(C)c(O)c4c(O)c(c5c(c4c3C2=O)NC2(CCN(CC(C)C)CC2)N=5)=NC(=O)/C(C)=C\C=C\[C@H](CO)[C@H](O)[C@@H](C)[C@@H](O)[C@@H](C)[C@H](OC(C)=O)[C@@H]1C | CDC1 | MIC | 0.31 µg/mL
CC1COc2c(N3CCN(C)CC3)c(F)cc3c(=O)c(C(=O)O)cn1c23 |  | MIC | 2.5 µg/mL